Laboratory results: patent US20060115837A1 (WASHINGTON UNIVERSITY, published 2006)

Molecular target: West Nile Virus envelope protein on WNV virions (West Nile Virus) (UniProt Q9Q6P4)
Assay: cell-based or functional assay

## monoclonal antibody E60
  antibody-dependent enhancement of WNV infection of J774.2 murine macrophages (virus yield by plaque assay), 50 µg/ml mAb: 3000 fold
